Results of unrelated studies side by side (data: NIAID ChemDB).

All rows: whole-cell or culture tests; agent: Mycobacterium tuberculosis

Percent inhibition refers to the dose given; in toxicity tests it is the harm to the cells. Rows are shuffled and stem from different studies. MIC bound: limit read from a one-dose screen. ECn is the concentration giving n% inhibition of infection, replication or growth. A number after MIC or MFC names an inhibition level or a share of isolates. "inactive" is the filed call at that dose; no cut-off is given. An empty or dashed field is not shown.

structure,cell line,dose,strain,method,conditions,read-out,value
O=[N+]([O-])c1ccc2c(c1)S(=O)c1ccccc1N2c1ccccc1,-,-,H37Rv,-,-,MIC,>100 µg/mL
Cc1ccc2nc(C(=O)N/N=C/c3ccc(Oc4ccc(Cl)cc4)cc3)[nH]c2c1,-,-,H37Rv,resazurin,-,MIC,3.125 µg/mL
COC(=O)c1ccc2c(=O)c3ccccc3oc2c1,-,4 µg/mL,H37Rv,-,-,inhibition,inactive
NC(c1ccccc1)(C(F)(F)F)P1(=O)OC(=O)c2ccccc2O1,-,6.25 µg/mL,H37Rv,resazurin,-,inhibition,31%
C=CC(O)CSCCCCCCCCCCCC,-,-,H37Rv,-,-,MIC,>100 µg/mL
Cc1ccc2oc3ccccc3c(=O)c2c1,-,2 µg/mL,H37Rv,-,-,inhibition,inactive
NC1[C@H]2CN(c3nc4c(cc3F)c(=O)c(C(=O)O)cn4-c3ccc(F)cc3F)C[C@@H]12,-,-,250 isolates,-,-,MIC50,32 µg/mL
Nc1ccc(C(=O)O)c(Cl)c1,-,-,H37Rv,BACTEC,-,MIC bound,>12.5 µg/mL
CCOC(=O)Cc1csc(NC(=O)CCl)n1,-,-,H37Rv,-,-,MIC,>12.5 µg/mL
Cl.Nc1ccc(N2CCCCC2)cc1,-,-,H37Rv,-,-,MIC,25 µg/mL
O=C(O)c1ccc2c(=O)c3cc([N+](=O)[O-])ccc3oc2c1C(=O)O,-,32 µg/mL,H37Rv,-,-,inhibition,inactive
Cc1c(Cl)[n+](=O)c2cc(F)c(F)cc2n1[O-],-,6.25 µg/mL,H37Rv,-,-,inhibition,100%
N#CCC(=O)N(C(N)=O)c1ccccc1,-,-,H37Rv,-,-,MIC,100 µg/mL
CCCCCCCCc1ccc(-c2nnc(SCc3ccc(Cl)cc3)n2C)cc1,-,-,-,resazurin,-,EC50,>200 µM
CC1=CC[C@]2(C)CC[C@]3(C=O)[C@@H](C(C)C)CC[C@H]3[C@@H]2C=C1,-,-,H37Rv,visual reading / absorbance,-,MIC,10.9 µM
C/C(=N/NC(=S)N1CCC(c2ccccc2)CC1)c1nccnc1C,-,12.5 µg/mL,H37Rv,BACTEC,-,inhibition,96%
Nc1ccc(O)c(-c2ccccc2)c1,-,-,H37Rv,-,-,MIC,25 µg/mL
COC(=O)C(CO)NC(=O)C(NC(=O)OCc1ccccc1)C(C)O,-,-,H37Rv,BACTEC,-,MIC,≥12.8 µg/mL
Cc1c(CN2CCSCC2)cc(-c2ccc(F)cc2)n1-c1ccccc1F,-,-,H37Rv,-,-,MIC,2 µg/mL
C[C@@H]1CN(c2c(F)c(N)c3c(=O)c(C(=O)O)cn(C4CC4)c3c2F)C[C@H](C)N1,-,-,100 isolates,-,-,MIC50,0.25 µg/mL
C/C(=N\N1CC(=O)NC1=O)c1ccc([N+](=O)[O-])o1,VERO,-,H37Rv,BACTEC,-,MIC,12.5 µg/mL
Cc1ccc(S(=O)(=O)Nc2nn[nH]n2)cc1,-,-,H37Rv,-,-,MIC,100 µg/mL
C[C@H]1COc2c(N3CCN(C)CC3)c(F)cc3c(=O)c(C(=O)O)cn1c23,-,-,18 strains (levofloxacin-resistant),-,-,MIC50,3.13 µg/mL
Cc1ccc2oc3ccc([N+](=O)[O-])cc3c(=O)c2c1[N+](=O)[O-],-,4 µg/mL,H37Rv,-,-,inhibition,inactive
COc1ccc(C2c3cc4c(c(OC)c3CC3OCC(=O)C32)OCO4)cc1OC,-,-,H37Rv,BACTEC,-,MIC bound,>12.5 µg/mL
CC(C)(C)c1ccc(C(=O)O)s1,-,-,H37Rv,-,-,MIC,>100 µg/mL
COC1=C(c2ccc(C(C)(C)C)cc2)C(=O)NC1=O,-,12.5 µg/mL,H37Rv,BACTEC,-,inhibition,8%
CCOC(=O)Cc1csc(/N=C2/NC(=O)/C(=C\c3ccc(C(=O)O)cc3)S2)n1,-,-,H37Rv,-,-,MIC,>12.5 µg/mL
O=C1O[C@@H](Cn2ccnn2)CN1c1ccc(N2C[C@H]3CC(n4ccnn4)C[C@H]3C2)c(F)c1,-,-,H37Rv,broth dilution / resazurin,-,MIC,2 µg/mL
Cc1ccc2nc(C(=O)N/N=C/c3ccc(Oc4ccc(Cl)cc4Cl)cc3)[nH]c2c1,-,-,H37Rv,resazurin,-,MIC,3.125 µg/mL
CCCCCCCCO[C@@H]1O[C@H]([C@@H](COC)O[C@H]2O[C@H](CO)[C@@H](O)[C@@H]2O)[C@H](OC)[C@H]1OC,-,-,H37Ra,-,-,MIC,>128 µg/mL
C[C@H]1CN(c2c(F)cc3c(=O)c(C(=O)O)cn(C4CC4)c3c2OC(F)F)CCN1,-,-,100 isolates,-,-,MIC50,0.25 µg/mL
CCCCCCC#Cc1cncc(-c2nnc(SCc3cc([N+](=O)[O-])cc([N+](=O)[O-])c3)n2C)c1,-,-,Erdman,resazurin,-,EC50,0.34 µM
C[C@H]1CC[C@@]2(NC1)O[C@H]1C[C@H]3[C@@H]4CC=C5C[C@@H](O[C@@H]6O[C@H](CO)[C@H](O)[C@H](O[C@@H]7O[C@H](CO)[C@@H](O)[C@H](O)[C@H]7O)[C@H]6O[C@@H]6O[C@@H](C)[C@H](O)[C@@H](O)[C@H]6O)CC[C@]5(C)[C@H]4CC[C@]3(C)[C@H]1[C@@H]2C,-,-,H37Rv,BACTEC,-,MIC bound,>12.8 µg/mL
NC(c1ccccc1)C(O)c1ccccc1,-,-,H37Rv,-,-,MIC,>100 µg/mL
O=C(Nc1cccc2c1[nH]c(=O)c1ccccc12)C(F)(F)F,-,12.5 µg/mL,H37Rv,BACTEC,-,inhibition,30%
CC(C)[C@H]1CC[C@H]2[C@@H]3C=C[C@](C)(O)CC[C@]3(C)CC[C@]12CO,-,-,H37Rv,visual reading / absorbance,-,MBC,20.4 µM
C/C(O)=C(/C=N/C(=S)Nc1ccc(Cl)c(Cl)c1)C(=O)Nc1ccccc1C,-,-,H37Rv,resazurin,-,MIC bound,>6.25 µg/mL
N[C@@H]1CN(c2c(F)cc3c(=O)c(C(=O)O)cn([C@@H]4C[C@@H]4F)c3c2Cl)CC12CC2,-,-,18 strains (levofloxacin-resistant),-,-,MIC90,1.56 µg/mL
NC(=O)c1cnccn1,-,-,Isolate 9739,-,-,MIC,300 µg/mL
O=C(O)c1cc(=O)c2ccccc2[nH]1,-,12.8 µg/mL,H37Rv,BACTEC,-,inhibition,21%
CSCCC(N)C(=O)O,-,-,H37Rv,-,-,MIC,>100 µg/mL
O=[n+]1c(Sc2ccccc2)c(CBr)n([O-])c2ccc(C(F)(F)F)cc21,-,-,H37Rv,-,-,MIC,>6.25 µg/mL
O=C1NC(CCO)C(=O)NC1CCO,-,-,H37Rv,-,-,MIC,>100 µg/mL
CC1(C)C=CC(NC(=O)c2cc3c(Cl)cncc3[nH]2)CC1,-,-,H37Rv,resazurin,-,MIC90,0.13 µg/mL
O=c1[nH][nH]c(=O)c2c1nc(SCc1ccccc1)n2Cc1ccccc1,-,-,H37Rv,BACTEC,-,MIC bound,>12.5 µg/mL
CSc1cc(N)c2ncccc2c1[N+](=O)[O-],-,-,H37Rv,-,-,MIC,>100 µg/mL
COC(=O)c1cccc2oc3ccccc3c(=O)c12,-,16 µg/mL,H37Rv,-,-,inhibition,inactive
CO[C@H]1/C=C/O[C@@]2(C)Oc3c(C)c(O)c4c(O)c(c(/C=N/N5CCN(C)CC5)c(O)c4c3C2=O)NC(=O)/C(C)=C\C=C\[C@H](C)[C@H](O)[C@@H](C)[C@@H](O)[C@@H](C)[C@H](OC(C)=O)[C@@H]1C,-,-,TN659,-,-,MIC,8 µg/mL
C[C@H]1COc2c(N3CCN(C)CC3)c(F)cc3c(=O)c(C(=O)O)cn1c23,-,-,106-2,-,-,MIC,0.5 µg/mL
Oc1cc(Cl)ccc1Oc1ccc(Cl)cc1Cl,-,-,H37Rv,resazurin,-,MIC,5 µg/mL
CCOC(=O)Cc1csc(/N=C2/NC(=O)CS2)n1,-,-,H37Rv,-,-,MIC,>12.5 µg/mL
Cc1cc(Oc2ccc(/C=N/NC(=O)c3nc4ccc([N+](=O)[O-])cc4[nH]3)cc2)ccc1Cl,-,-,H37Rv,resazurin,-,MIC,1.5 µg/mL
CCCCCc1ccccn1,-,-,H37Rv,-,-,MIC,>100 µg/mL
CC(=O)NC[C@H]1CN(c2ccc(N3C[C@H]4CC(N)C[C@H]4C3)c(F)c2)C(=O)O1,-,-,H37Rv,broth dilution / resazurin,-,MIC,2 µg/mL
Nc1cccc(O)c1Br,-,-,H37Rv,-,-,MIC,50 µg/mL
CCOC(=O)/C(C(=N)c1nc(C)c(C(=O)OCC)c(C(N)=O)n1)=C(/C)O,-,6.25 µg/mL,H37Rv,resazurin,-,inhibition,2%
CC(=O)Nc1c(Cl)cc(N)cc1Cl,-,-,H37Rv,-,-,MIC,>100 µg/mL
CC(=O)OC[C@]12CC[C@@]3(C)CC=C(C)C=C[C@H]3[C@@H]1CC[C@@H]2C(C)C,-,-,H37Rv,visual reading / absorbance,-,MBC,151.3 µM
CCN=c1cc2n(-c3ccc(C(F)(F)F)cc3)c3ccccc3nc-2cc1Nc1ccc(C(F)(F)F)cc1,-,-,2227,-,multidrug-resistant,MIC,0.12 µg/mL
CC1c2ccccc2-c2ccccc2N1C(=O)c1cccc(C(=O)N2c3ccccc3-c3ccccc3C2C)n1,-,-,H37Rv,BACTEC,-,MIC bound,>12.5 µg/mL
Cc1ccc2c(c1)n([O-])c(C)c(S(=O)(=O)c1ccccc1)[n+]2=O,-,-,H37Rv,-,-,MIC,3.13 µg/mL
CC(=O)NC[C@H]1CN(c2ccc(N3C[C@H]4CC(NC(=O)c5ccc([N+](=O)[O-])cc5)C[C@H]4C3)c(F)c2)C(=O)O1,-,-,H37Rv,broth dilution / resazurin,-,MIC,0.5 µg/mL
CC(C)[C@H]1CC[C@H]2[C@@H]3C=C[C@]4(C)CC[C@@]3(CC[C@]12CO)CO4,-,-,H37Rv,visual reading / absorbance,-,MBC,20.5 µM
Nc1nccc(N(CCCCN2CCCCC2)CCCCN2CCCCC2)n1,-,-,H37Rv,-,-,MIC,100 µg/mL
CC(=O)NC[C@H]1CN(c2ccc(N3C[C@H]4CC(NC(C)=O)C[C@H]4C3)c(F)c2)C(=O)O1,-,-,H37Rv,broth dilution / resazurin,-,MIC,1 µg/mL
O=C(O)Cc1c[nH]c2ccccc12,-,-,H37Rv,-,-,MIC,50 µg/mL
CCCCCCCCO[C@@H]1O[C@H]([C@@H](COCc2ccccc2)O[C@H]2O[C@H](CO)[C@@H](O)[C@@H]2O)[C@H](OCc2ccccc2)[C@H]1OCc1ccccc1,-,-,H37Ra,-,-,MIC,32 µg/mL
CCOC(=O)Cc1csc(/N=C2/NC(=O)C(c3ccccc3)S2)n1,-,-,H37Rv,-,-,MIC,>12.5 µg/mL
N=c1c2ccccc2c2ccccc2n1O,-,-,H37Rv,BACTEC,-,MIC bound,>12.5 µg/mL
COc1ccc(Oc2ccc(/C=N/NC(=O)c3nc4ccccc4[nH]3)cc2)cc1,-,-,H37Rv,resazurin,-,MIC,6.25 µg/mL
CC1COc2c(N3CCN(C)CC3)c(F)cc3c(=O)c(C(=O)O)cn1c23,-,-,SMI 19,BACTEC,-,MIC,0.5 µg/mL
CCOC(=O)C1=C(C)OC(C)(/N=C(\C#N)C(=O)OC)C1c1ccccc1,-,12.5 µg/mL,H37Rv,BACTEC,-,inhibition,12%
NC(=O)c1ccc2oc3c(C(N)=O)cccc3c(=O)c2c1,-,16 µg/mL,H37Rv,-,-,inhibition,inactive
CCCCCCCCOc1cncc(-c2nnc(SCc3ccc(Cl)cc3)n2C)c1,-,-,-,resazurin,-,EC50,3.5 µM
c1ccc(-c2ccc(Sc3ccc(-c4ccccc4)cc3)cc2)cc1,-,-,H37Rv,-,-,MIC,>100 µg/mL
Cc1c(Sc2ccccc2)[n+](=O)c2cc(C(F)(F)F)ccc2n1[O-],-,6.25 µg/mL,H37Rv,-,-,inhibition,100%
CC(C)(C)c1ccc(OCC2CO2)cc1,-,-,H37Rv,-,-,MIC,100 µg/mL
Cc1ccc([N+](=O)[O-])cc1P(=O)(O)c1cc([N+](=O)[O-])ccc1C,-,12.5 µg/mL,H37Rv,BACTEC,-,inhibition,0%
COc1cccc(NC(=S)Nc2ccccc2)c1,-,-,H37Rv,-,-,MIC,>100 µg/mL
CNc1ncccc1Nc1cc(=O)n2c3cccnc3n(C)c2c1,-,6.25 µg/mL,H37Rv,resazurin,-,inhibition,10%
c1cc[c]([Ge]([c]2ccccc2)([c]2ccccc2)[c]2ccccc2)cc1,-,-,H37Rv,-,-,MIC,>100 µg/mL
NC(=O)N/N=C1\CCC(OCc2ccccc2)CC1CC(=O)O,-,-,H37Rv,BACTEC,-,MIC bound,>12.5 µg/mL
COC(=O)c1c([N+](=O)[O-])ccc2oc3ccc([N+](=O)[O-])cc3c(=O)c12,-,32 µg/mL,H37Rv,-,-,inhibition,inactive
CCOc1cc(=O)cc2n(-c3cc(OCC)c(OC(C)=O)c(OCC)c3)c3ccccc3nc1-2,-,-,H37Rv,BACTEC,-,MIC bound,>12.5 µg/mL
CC1COc2c(N3CCN(C)CC3)c(F)cc3c(=O)c(C(=O)O)cn1c23,-,-,206 isolates (susceptible),-,-,MIC50,1 µg/mL

A second listing of 10 rows from above:

structure,cell line,dose,strain,method,conditions,read-out,value
CC1(C)C=CC(NC(=O)c2cc3c(Cl)cncc3[nH]2)CC1,-,-,H37Rv,resazurin,-,MIC90,0.13 µg/mL
COc1ccc(Oc2ccc(/C=N/NC(=O)c3nc4ccccc4[nH]3)cc2)cc1,-,-,H37Rv,resazurin,-,MIC,6.25 µg/mL
N#CCC(=O)N(C(N)=O)c1ccccc1,-,-,H37Rv,-,-,MIC,100 µg/mL
Cc1c(Cl)[n+](=O)c2cc(F)c(F)cc2n1[O-],-,6.25 µg/mL,H37Rv,-,-,inhibition,100%
O=C1O[C@@H](Cn2ccnn2)CN1c1ccc(N2C[C@H]3CC(n4ccnn4)C[C@H]3C2)c(F)c1,-,-,H37Rv,broth dilution / resazurin,-,MIC,2 µg/mL
CNc1ncccc1Nc1cc(=O)n2c3cccnc3n(C)c2c1,-,6.25 µg/mL,H37Rv,resazurin,-,inhibition,10%
Cc1ccc(S(=O)(=O)Nc2nn[nH]n2)cc1,-,-,H37Rv,-,-,MIC,100 µg/mL
COC(=O)c1c([N+](=O)[O-])ccc2oc3ccc([N+](=O)[O-])cc3c(=O)c12,-,32 µg/mL,H37Rv,-,-,inhibition,inactive
Cc1ccc2oc3ccc([N+](=O)[O-])cc3c(=O)c2c1[N+](=O)[O-],-,4 µg/mL,H37Rv,-,-,inhibition,inactive
C/C(=N\N1CC(=O)NC1=O)c1ccc([N+](=O)[O-])o1,VERO,-,H37Rv,BACTEC,-,MIC,12.5 µg/mL